Measurements from patent US20230248844A1, “C[…] ADC OR AN AOC COMPRISING A VHH, AND A SAPONIN OR A LIGAND-SAPONIN CONJUGATE” (SAPREME TECHNOLOGIES B.V., priority 2020, published 2023).

Test system: A431 (EGFR++/HER2+/-/CD71+) xenograph tumor
Test: A431 xenograph nude mouse tumor model, 2T2C (Example 13)
Assay type: in vivo
Settings: 25 mg/kg cetuximab-(Cys-L-SO1861)^4 i.p. + 0.03 mg/kg toxin conjugate i.v., day 9, 14, then 1 dosing per week; cetuximab positive control (FIG. 21)
Excerpt: The 2 target 2-components system (2T2C) is the combination treatment of mAb1-SO1861 and mAb2-protein toxin, (FIG. 1B-D).

With “Cetuximab: monoclonal antibody recognizing and binding human EGFR [reference compound]” the tumor response was “only tumor growth inhibition, but no regression”.
